Pooled drug test results. Numbers come from NIAID ChemDB, via PubChem.

All rows: tests on isolated targets

Blank or dashed fields: not listed here. Two numbers with a dash give a range or band. Percent inhibition refers to the dose given; in toxicity tests it is the harm to the cells. Rows are shuffled and stem from different studies. ICn is the concentration giving n% inhibition.

structure,measure,protein,species,tested at,result
CC[C@@H](C=O)NC(=O)[C@@H]1C[C@@H](OCc2ccccc2)CN1C(=O)[C@@H](NC(=O)[C@@H](NC(=O)c1cnccn1)C(C)C)C(C)C,Ki,NS3 protease,Hepatitis C virus,-,1–100 µM
O=C(N[C@@H](Cc1ccc(O)cc1)C(=O)O)c1cc2nc(-c3ccco3)c(C3CCCCC3)c(=O)n2[nH]1,IC50,RNA-dependent RNA polymerase,Hepatitis C virus,-,<1 µM
CCc1cc2c(C(=O)NC)c(-c3ccc(F)cc3)oc2cc1N(CS(C)(=O)=O)c1cscn1,IC50,Nonstructural protein 5B,Hepatitis C virus,-,≤0.5 µM
O=C(Nc1cscc1-c1nc(C(=O)O)c(O)c(=O)[nH]1)Nc1cccc(Cl)c1Cl,IC50,HCV polymerase,Hepatitis C virus,-,<25 µM
COC(=O)c1cc(S(=O)(=O)Nc2cc(-c3ccccc3)sc2C(=O)O)oc1C,IC50,NS3 ATPase,Hepatitis C virus,-,<5 µM
Cc1cc(-c2ccccc2-c2ccc(Cl)cc2)nc2ccc(-c3nc4cc(C(=O)O)ccc4n3C3CCCCC3)cc12,inhibition,NS5B polymerase,Hepatitis C virus,33 µM,98.59%
O=C(O)c1sc(-c2ccccc2)cc1NS(=O)(=O)Cc1cc(OCC(F)(F)F)ccc1OCC(F)(F)F,IC50,NS3 ATPase,Hepatitis C virus,-,5–20 µM
CNC(=O)C1CCN(c2nc(Nc3ccc4[nH]ncc4c3)nc(OC)n2)CC1,inhibition,DNA polymerase,Hepatitis B virus,0.01 µg/mL,2%
O=C(O)c1ccc2c(c1)nc(-c1ccc3nc(-c4ccc(-n5ccnc5)cc4)ccc3c1)n2C1CCCCC1,inhibition,NS5B polymerase,Hepatitis C virus,33 µM,99.22%
COc1nc(Nc2ccc3[nH]ncc3c2)nc(N2CCN(C)CC2)n1,inhibition,Nonstructural protein 5B,Hepatitis C virus,10 µg/mL,45%
O=C(O)c1cnn2c(C3CCCCC3)c(-c3ccc(F)cc3)cnc12,IC50,RNA-dependent RNA polymerase,Hepatitis C virus,-,<1 µM
O=C(O)c1ccc2c(c1)nc(-c1ccc3nc(-c4ccccc4)cc(Oc4ccccc4)c3c1)n2C1CCCCC1,inhibition,NS5B polymerase,Hepatitis C virus,33 µM,101%
O=C(O)c1sc(-c2ccccc2)cc1N(C(=O)c1ccc(Cl)cc1Cl)C1CC1,IC50,NS3 ATPase,Hepatitis C virus,-,<5 µM
Cc1ccc(CNC(=O)Nc2cscc2-c2nc(C(=O)O)c(O)c(=O)[nH]2)cc1,IC50,HCV polymerase,Hepatitis C virus,-,<25 µM
CC[C@@H](C=O)NC(=O)[C@@H]1C[C@@H](OC(=O)Nc2cc(OC)ccc2OC)CN1C(=O)[C@@H](NC(=O)[C@@H](NC(=O)c1cnccn1)C(C)C)C(C)C,Ki,NS3 protease,Hepatitis C virus,-,1–100 µM
CC(=O)Nc1nc(C)c(S(=O)(=O)Nc2ccccc2-c2nc(C(=O)O)c(O)c(=O)[nH]2)s1,IC50,HCV polymerase,Hepatitis C virus,-,<100 µM
CNC(=O)c1c(-c2ccc(F)cc2)oc2ccc(OC(C)C)c(N(Cc3ccccc3)S(C)(=O)=O)c12,IC50,Nonstructural protein 5B,Hepatitis C virus,-,≤0.5 µM
Cc1ccccc1S(=O)(=O)Nc1cc(-c2ccccc2C(=O)O)sc1C(=O)O,IC50,NS3 ATPase,Hepatitis C virus,-,5–20 µM
O=C(O)c1nc(-c2ccccc2NS(=O)(=O)c2ccc3c(Cl)cccc3c2)[nH]c(=O)c1O,IC50,HCV polymerase,Hepatitis C virus,-,<100 µM
CCn1c(-c2ccc3nc(-c4cc(OC)ccc4-c4ccc(Cl)cc4)ccc3c2)nc2cc(C(=O)O)ccc21,inhibition,NS5B polymerase,Hepatitis C virus,33 µM,90.07%
O=C(Nc1ccsc1-c1nc(C(=O)O)c(O)c(=O)[nH]1)OCCc1ccccc1Br,IC50,HCV polymerase,Hepatitis C virus,-,<25 µM
N#Cc1cnn2c(-c3ccccc3)c(-c3ccccc3)cnc12,IC50,RNA-dependent RNA polymerase,Hepatitis C virus,-,>10 µM
COc1cccc(-c2ccc3cc(-c4nc5cc(C(=O)O)ccc5n4C4CCCCC4)ccc3n2)c1,inhibition,NS5B polymerase,Hepatitis C virus,33 µM,93.46%
O=S(=O)(Nc1cnn2c(C3CCCCC3)c(-c3ccc(OCc4ccccc4)cc3)cnc12)c1ccsc1,IC50,RNA-dependent RNA polymerase,Hepatitis C virus,-,>10 µM
CCOc1ccc(-c2ccc(OC)cc2-c2ccc3cc(-c4nc5cc(C(=O)O)ccc5n4C4CCCCC4)ccc3n2)cc1,inhibition,NS5B polymerase,Hepatitis C virus,100 µM,99.69%
O=C(O)c1sc(-c2ccccc2)cc1N(Cc1ccc(Cl)cc1)C(=O)C1CCC1,IC50,NS3 ATPase,Hepatitis C virus,-,5–20 µM
COc1nc(Nc2ccc3cn[nH]c3c2)nc(NC2CC2)n1,inhibition,DNA polymerase,Hepatitis B virus,0.1 µg/mL,21%
CNC(=O)c1c(-c2ccc(F)cc2)oc2cc(S(=O)(=O)N3CCC(O)CC3)c(OC(C)C)cc12,IC50,Nonstructural protein 5B,Hepatitis C virus,-,≤0.5 µM
COc1ccc(-c2cnc3c(C(=O)O)cnn3c2C2CCCCC2)cc1,IC50,RNA-dependent RNA polymerase,Hepatitis C virus,-,1–10 µM
O=C(Cc1cccc(Br)c1)Nc1ccsc1-c1nc(C(=O)O)c(O)c(=O)[nH]1,IC50,HCV polymerase,Hepatitis C virus,-,<25 µM
CC[C@@H](C=O)NC(=O)[C@@H]1C[C@@H](OC(=O)Nc2ccc3ncsc3c2)CN1C(=O)[C@@H](NC(=O)[C@@H](NC(=O)c1cnccn1)C(C)C)C(C)C,Ki,NS3 protease,Hepatitis C virus,-,1–100 µM
O=C(Nc1cccc(-c2nc(C(=O)O)c(O)c(=O)[nH]2)c1)Nc1ccc(Cl)c(C(F)(F)F)c1,IC50,HCV polymerase,Hepatitis C virus,-,<100 µM
COc1nc(NCCc2c[nH]c3ccccc23)nc(Nc2ccc3[nH]ncc3c2)n1,inhibition,Nonstructural protein 5B,Hepatitis C virus,1 µg/mL,22%
CC[C@@H](C=O)NC(=O)[C@@H]1C[C@@H](OCc2ccccc2)CN1C(=O)[C@@H](NC(=O)[C@@H](NC(=O)c1cnccn1)c1ccccc1)C(C)C,Ki,NS3 protease,Hepatitis C virus,-,1–100 µM
COc1nc(Nc2ccc3cn[nH]c3c2)nc(N2CCC(O)CC2)n1,inhibition,DNA polymerase,Hepatitis B virus,0.01 µg/mL,12%
CCNC(=O)c1c(-c2ccc(F)cc2)oc2cc(NS(C)(=O)=O)c(OC(C)C)cc12,IC50,Nonstructural protein 5B,Hepatitis C virus,-,≤0.5 µM
COc1nc(NCCN2CCOCC2)nc(Nc2ccc3cn[nH]c3c2)n1,inhibition,DNA polymerase,Hepatitis B virus,0.1 µg/mL,54%
NC(N)=NCCCC(NC(=O)c1ccc2c(c1)nc(-c1cc3ncc(-c4ccccc4)nc3cc1F)n2C1CCCCC1)C(=O)O,inhibition,NS5B polymerase,Hepatitis C virus,100 µM,94.97%
COc1cccc(-c2cc(-c3ccc(Cl)cc3Cl)nc3cc(C(=O)O)nn23)c1,IC50,RNA-dependent RNA polymerase,Hepatitis C virus,-,>10 µM
COc1nc(Nc2ccc3[nH]ncc3c2)nc(N2CCN(C(=O)c3cccnc3)CC2)n1,inhibition,DNA polymerase,Hepatitis B virus,0.01 µg/mL,11%

The last 5 rows once more:

structure	measure	protein	species	tested at	result
CCNC(=O)c1c(-c2ccc(F)cc2)oc2cc(NS(C)(=O)=O)c(OC(C)C)cc12	IC50	Nonstructural protein 5B	Hepatitis C virus	-	≤0.5 µM
COc1nc(NCCN2CCOCC2)nc(Nc2ccc3cn[nH]c3c2)n1	inhibition	DNA polymerase	Hepatitis B virus	0.1 µg/mL	54%
NC(N)=NCCCC(NC(=O)c1ccc2c(c1)nc(-c1cc3ncc(-c4ccccc4)nc3cc1F)n2C1CCCCC1)C(=O)O	inhibition	NS5B polymerase	Hepatitis C virus	100 µM	94.97%
COc1cccc(-c2cc(-c3ccc(Cl)cc3Cl)nc3cc(C(=O)O)nn23)c1	IC50	RNA-dependent RNA polymerase	Hepatitis C virus	-	>10 µM
COc1nc(Nc2ccc3[nH]ncc3c2)nc(N2CCN(C(=O)c3cccnc3)CC2)n1	inhibition	DNA polymerase	Hepatitis B virus	0.01 µg/mL	11%